## Kdimer by position in the HIV-1 leader RNA

From the data files of Ye et al. 2022, doi:10.1038/s41594-022-00746-2.

RNA: 5' end of the HIV-1 NL4-3 genome, made in vitro. Positions 1-437 read:
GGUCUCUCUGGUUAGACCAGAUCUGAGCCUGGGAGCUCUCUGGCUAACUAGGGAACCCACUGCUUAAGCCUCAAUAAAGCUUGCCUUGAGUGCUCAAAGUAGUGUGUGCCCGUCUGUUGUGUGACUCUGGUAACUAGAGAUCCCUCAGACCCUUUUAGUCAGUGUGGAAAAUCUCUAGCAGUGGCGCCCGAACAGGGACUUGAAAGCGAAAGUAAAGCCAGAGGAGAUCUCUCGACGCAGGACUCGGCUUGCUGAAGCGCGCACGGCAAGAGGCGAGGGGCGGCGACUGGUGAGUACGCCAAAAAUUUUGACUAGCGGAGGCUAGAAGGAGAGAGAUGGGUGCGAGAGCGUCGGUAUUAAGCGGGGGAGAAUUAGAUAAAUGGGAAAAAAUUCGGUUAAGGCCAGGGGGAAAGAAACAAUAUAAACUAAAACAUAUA

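Randomly mutated transcripts starting with one, two or three G (1G, 2G, 3G), capped or uncapped, were folded for 30 min at 37 °C. Monomer and dimer bands were cut from native gels after folding in high salt (300 mM KCl, 5 mM MgCl2) or low salt (40 mM KCl, 0.1 mM MgCl2). Kdimer compares mutation frequencies in monomer and dimer, corrected for sequencing errors.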

Scale: median log2 Kdimer over the changes at a position; positive = changes inhibit dimerization, negative = changes enhance it.
One numbering serves 1G, 2G and 3G.
A position is written with its base.

position	domain	3G uncapped high-salt	3G capped high-salt
A192	PBS	0.03	0.03
C193	PBS	-0.04	-0.19
A194	PBS	0.21	-0.02
G195	PBS	0.68	0.36
G196	PBS	0.57	0.29
G197	PBS	0.56	0.26
A198	PBS	0.04	0.26
C199	PBS	0.09	-0.27
U200	PBS	0.06	0.10
U201	PBS	0.07	0.10
G202	PBS	-0.13	-0.21
A203	PBS	0.34	0.51
A204	PBS	-0.04	0.25
A205	PBS	0.05	0.21
G206	PBS	-0.48	-1.07
C207	PBS	-0.14	-0.67
G208	PBS	-0.04	0.10
A209	PBS	0.67	1.04
A210	PBS	0.14	-0.02
A211	PBS	-0.31	-0.55
G212	PBS	-0.64	-0.98
U213	PBS	-0.02	-0.31
A214	PBS	0.06	0.11
A215	PBS	-0.03	-0.46
A216	PBS	-0.16	-0.49
G217	antiPAS	-0.77	-1.16
C218	antiPAS	-0.44	-0.73
C219	antiPAS	0.71	0.58
A220	antiPAS	0.25	0.19
G221	antiPAS	0.13	-0.16
A222	antiPAS	0.21	-0.22
G223	antiPAS	0.22	0.08
G224	none	-0.16	0.02
A225	none	-0.02	-0.46
G226	none	-0.40	-0.44
A227	CU	0.70	1.22
U228	CU	0.06	0.04
C229	CU	0.46	0.37
U230	CU	0.30	0.53
C231	CU	0.37	0.04
U232	CU	0.21	0.22
C233	CU	0.49	0.82
G234	none	0.44	1.11
A235	none	-0.87	-1.03
C236	none	1.95	2.65
G237	none	0.60	1.18
C238	none	1.96	2.80
A239	none	-0.28	-0.50
G240	none	-0.09	-0.48
G241	none	-0.26	-0.34
A242	none	1.15	0.69
C243	SL1	1.03	0.65
U244	SL1	0.40	0.38
C245	SL1	1.28	1.13
G246	SL1	1.33	1.05
G247	SL1	-0.63	-0.95
C248	SL1	0.79	0.57
U249	SL1	1.56	1.16
U250	SL1	2.75	2.62
G251	SL1	5.86	4.04
C252	SL1	4.58	2.97
U253	SL1	2.45	1.90
G254	SL1	2.44	2.17
A255	SL1	-0.43	-0.22
A256	SL1	1.00	0.74
G257	SL1	3.01	4.26
C258	SL1	6.19	4.54
G259	SL1	7.58	4.74
C260	SL1	6.67	5.22
G261	SL1	6.79	5.08
C262	SL1	3.90	3.41
A263	SL1	0.16	-0.15
C264	SL1	2.08	1.71
G265	SL1	2.90	2.68
G266	SL1	6.36	5.20
C267	SL1	4.75	4.13
A268	SL1	2.87	3.29
A269	SL1	1.48	1.72
G270	SL1	1.23	1.48
A271	SL1	-0.17	-0.27
G272	SL1	-0.21	-0.61
G273	SL1	-0.47	-0.68
C274	SL1	0.32	0.08
G275	SL1	2.59	2.89
A276	SL1	3.42	3.15
G277	SL1	2.26	2.56
G278	none	0.22	0.00
G279	none	0.39	-0.25

A selection of 8 entries from above:

* A194 (domain PBS) -> 3G uncapped high-salt 0.21; 3G capped high-salt -0.02
* G208 (domain PBS) -> 3G uncapped high-salt -0.04; 3G capped high-salt 0.10
* U244 (domain SL1) -> 3G uncapped high-salt 0.40; 3G capped high-salt 0.38
* A211 (domain PBS) -> 3G uncapped high-salt -0.31; 3G capped high-salt -0.55
* G254 (domain SL1) -> 3G uncapped high-salt 2.44; 3G capped high-salt 2.17
* G196 (domain PBS) -> 3G uncapped high-salt 0.57; 3G capped high-salt 0.29
* C274 (domain SL1) -> 3G uncapped high-salt 0.32; 3G capped high-salt 0.08
* C207 (domain PBS) -> 3G uncapped high-salt -0.14; 3G capped high-salt -0.67